PubChem BioAssay AID1259414 – Drosophila RNAi Screening Center, 2018

- Aim: 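Host factors increasing or decreasing Wolbachia levels in cultured fly cells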 (primary screen)
- Cell system: Drosophila JW18 cells infected with Wolbachia
- Reagents: long dsRNA against Drosophila genes, 0.25 µg dsRNA per well of a 384-well plate
- Duration: 5 days
- Conditions: cells persistently infected with Wolbachia before knock-down; no added drug
- Measured: 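Automated imaging of bacterial rRNA staining divided by host cell count, reported as plate-normalised robust z-score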
- Reading the numbers: Wolbachia per cell robust z: higher = more Wolbachia per host cell than the plate typical
- Call rule: 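Active if absolute robust z reaches 1.5 in two or more of three replicates, leaving out multi- or no-target dsRNAs, genes unexpressed in JW18 and A1 wells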
In all, the deposit lists about 24,000 reagents; this is an unselected part of those that have a named target and a result. Over the whole deposit, about 1,210 (5%) are marked active. 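Inactive calls also include excluded dsRNAs with several or no targets, genes unexpressed in JW18, and well A1, regardless of score.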 Reagent sequences are not shown.

{"Gene":"CG33229","DRSC id":"DRSC07863","Wolbachia per cell robust z, rep 1":-0.185,"Wolbachia per cell robust z, rep 2":1.15,"Wolbachia per cell robust z, rep 3":-7.76,"Outcome":"inactive"}
{"Gene":"CG33229","DRSC id":"DRSC24581","Wolbachia per cell robust z, rep 1":0.897,"Wolbachia per cell robust z, rep 2":0.88,"Wolbachia per cell robust z, rep 3":0.69,"Outcome":"inactive"}
{"Gene":"EMC7","DRSC id":"DRSC07162","Wolbachia per cell robust z, rep 1":-0.0139,"Wolbachia per cell robust z, rep 2":-1.81,"Wolbachia per cell robust z, rep 3":-0.182,"Outcome":"inactive"}
{"Gene":"CG9801","DRSC id":"DRSC16568","Wolbachia per cell robust z, rep 1":-9.86,"Wolbachia per cell robust z, rep 2":-5.95,"Wolbachia per cell robust z, rep 3":-1.27,"Outcome":"active"}
{"Gene":"CG10834","DRSC id":"DRSC03693","Wolbachia per cell robust z, rep 1":-1.05,"Wolbachia per cell robust z, rep 2":-0.353,"Wolbachia per cell robust z, rep 3":0.474,"Outcome":"inactive"}
{"Gene":"CG10055","DRSC id":"DRSC12503","Wolbachia per cell robust z, rep 1":-0.00194,"Wolbachia per cell robust z, rep 2":-1.14,"Wolbachia per cell robust z, rep 3":-1.61,"Outcome":"inactive"}
{"Gene":"CG3587","DRSC id":"DRSC18541","Wolbachia per cell robust z, rep 1":-2.52,"Wolbachia per cell robust z, rep 2":-5.2,"Wolbachia per cell robust z, rep 3":-3.25,"Outcome":"active"}
{"Gene":"CG3587","DRSC id":"DRSC21966","Wolbachia per cell robust z, rep 1":-1.71,"Wolbachia per cell robust z, rep 2":-2.27,"Wolbachia per cell robust z, rep 3":-0.748,"Outcome":"active"}
{"Gene":"CG12637","DRSC id":"DRSC17845","Wolbachia per cell robust z, rep 1":0.77,"Wolbachia per cell robust z, rep 2":0.369,"Wolbachia per cell robust z, rep 3":-0.375,"Outcome":"inactive"}
{"Gene":"CG12637","DRSC id":"DRSC28060","Wolbachia per cell robust z, rep 1":-5.26,"Wolbachia per cell robust z, rep 2":-0.815,"Wolbachia per cell robust z, rep 3":-0.0137,"Outcome":"inactive"}
{"Gene":"CG8051","DRSC id":"DRSC20077","Wolbachia per cell robust z, rep 1":0.000823,"Wolbachia per cell robust z, rep 2":-0.741,"Wolbachia per cell robust z, rep 3":-2.14,"Outcome":"inactive"}
{"Gene":"CG8051","DRSC id":"DRSC26855","Wolbachia per cell robust z, rep 1":-2.59,"Wolbachia per cell robust z, rep 2":-0.312,"Wolbachia per cell robust z, rep 3":0.353,"Outcome":"inactive"}
